Laboratory results as given in patent US20120202754A1 (priority 2009, published 2012).

Protein sequences, listed by entry. Tags and fused reporters are not part of them. Residues count along the entry.
UniProt P0DPI0, 2-448 limits assumed: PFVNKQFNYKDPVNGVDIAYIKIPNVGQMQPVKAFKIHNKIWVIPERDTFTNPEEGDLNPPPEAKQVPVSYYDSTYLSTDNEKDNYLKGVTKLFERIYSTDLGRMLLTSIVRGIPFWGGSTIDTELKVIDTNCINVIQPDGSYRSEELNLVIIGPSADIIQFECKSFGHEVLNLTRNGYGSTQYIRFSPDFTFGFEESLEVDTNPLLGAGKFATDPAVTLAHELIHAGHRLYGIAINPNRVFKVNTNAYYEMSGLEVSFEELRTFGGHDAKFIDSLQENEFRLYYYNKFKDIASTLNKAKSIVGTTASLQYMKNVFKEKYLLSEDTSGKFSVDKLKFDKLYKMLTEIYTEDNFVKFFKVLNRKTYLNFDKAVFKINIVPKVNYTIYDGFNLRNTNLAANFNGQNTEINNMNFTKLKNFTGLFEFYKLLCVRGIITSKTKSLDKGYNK

Assays:
BoNT A protease activity [1] = biological target: T1, BoNT A protease activity (Clostridium botulinum, UniProt P0DPI0); settings: cited from earlier work
BoNT A protease activity [2] = biological target: T1, BoNT A protease activity; assay: Kinetic constants of BoNT A substrates taken from the literature (references 25, 26, 27); settings: versus flP6
[3] = biological target: T2, BoNT A light chain (BoNT A Lc) (Clostridium botulinum, UniProt P0DPI0)
[4] = Solubility in aqueous buffers
[5] = biological target: T2, BoNT A light chain (BoNT A Lc); assay: FRET fluorescence assay of BoNT A-Lc protease activity with flP6
[6] = Table 4, FRET substrates, from references (25), (27)
[7] = Table 3, from references (25), (26)

FITC-T(D)RIDQANQ(Ψ)RATK(εDabcyl)nL
Km (BoNT A protease activity [1]; [6]): ≥ 100 µM
Km (BoNT A protease activity [1]; estimated, reference (27)): ≥ 100 µM
type of kinetics (in words) (BoNT A protease activity [1]; reported in reference (27), rate linear up to solubility limit): non-saturable kinetics
Km, fold higher than that of flP6 (BoNT A protease activity [2]): 8 fold
kcat/Km, fold lower than that of flP6 (BoNT A protease activity [2]): 30 fold

CC[C@H](C)[C@H](NC(=O)[C@H](CCCNC(=N)N)NC(=O)[C@@H](NC(=O)[C@H](CCCNC(=N)N)NC(C)=O)C(C)C)C(=O)N[C@@H](CC(=O)O)C(=O)N[C@@H](C)C(=O)N[C@@H](C)C(=O)N[C@@H](CC(N)=O)C(=O)N[C@@H](CCC(N)=O)C(=O)N[C@@H](CCCNC(=N)N)C(=O)N[C@@H](C)C(=O)N[C@H](C(=O)N[C@@H](CCCNC(=N)N)C(=O)N[C@@H](CCSC)C(N)=O)[C@@H](C)O
Km [3]: 52 µM
solubility in aqueous buffers [4]: at least 6 mM

SNRTRIDEAN[dnpK]RA[daciaC]RML
kcat (BoNT A protease activity [1]; Table 4, FRET substrates, from reference (25)): 7.2 ± 0.40 s⁻¹
Km (BoNT A protease activity [1]; [6]): 96 µM

[DabcylK] R V R I D A A N Q R A T R M [SFC]
Km [3]: 13 µM
hydrolysis rate ([5]; 1.3 μM flP6, 4 nM BoNT A light chain): 980 fluorescence units/min
hydrolysis rate ([5]; 2.5 μM flP6, 4 nM BoNT A light chain): 1800 fluorescence units/min
hydrolysis rate ([5]; 5.0 μM flP6, 4 nM BoNT A light chain): 2999 fluorescence units/min
hydrolysis rate ([5]; 10 μM flP6, 1 nM light chain): 1030 fluorescence units/min
hydrolysis rate ([5]; 10 μM flP6, 2 nM light chain): 2220 fluorescence units/min
hydrolysis rate ([5]; 10 μM flP6, 3 nM light chain): 3265 fluorescence units/min
hydrolysis rate ([5]; 10 μM flP6, 4 nM BoNT A light chain): 5537 fluorescence units/min
hydrolysis rate ([5]; 10 μM flP6, 4 nM light chain): 4712 fluorescence units/min
substrate cleaved by BoNT A-Lc (post-reaction HPLC) ([5]; 10 μM flP6, 5 nM BoNT A-Lc, 15 minutes): 60%
average slope (reaction rate) of linear portion of fluorescence curve ([5]; 10 μM flP6, 5 nM BoNT A-Lc, pH 7.3, 25° C, 3 min to 7 min, three assays): 6381±1204 fluorescence units/min
hydrolysis rate ([5]; 10 μM flP6, 5 nM light chain): 6049 fluorescence units/min
fluorescence, fold higher than that of the blank ([5]; 10 μM flP6, 5 nM light chain, at 15 minutes): 28 fold
stability in the assay conditions (fluorescence of blank) ([5]; 10 μM flP6 without BoNT A-Lc, pH 7.3, 25° C): stable
net fluorescence increase compared with Fl-A ([5]; 10 μM substrate, 5 nM BoNT A light chain): seven-fold higher

S N K T R I D E A N Q R A T K M L
Km (BoNT A protease activity [1]; [7]): 1100 µM
kcat (BoNT A protease activity [1]; [7]): 23 ± 1.0 s⁻¹

Where two headings read alike, the source gives them in different places.
